Pooled drug test results. Numbers come from NIAID ChemDB, via PubChem.

All rows: toxicity to cultured cells; cells: VERO; read-out: CC50

CCn: concentration that lowers growth or viability of the cells by n%. Conditions beyond the fields shown may differ between rows.

structure | result
Nc1nc(=O)n([C@@H]2CC[C@H](CO)O2)cc1F | 33 µM
Cc1c(CN2CCSCC2)cc(-c2ccc(F)cc2)n1-c1ccc(Cl)cc1 | 8 µg/mL
CCCCCCCCCCCCCCC[C@H](O)CCC[C@H](O)C[C@H]1CC=CC(=O)O1 | 2.2 µg/mL
CC#Cc1cn([C@@H]2O[C@H](CO)[C@@H](O)[C@@H]2O)c(=O)[nH]c1=O | >500 µM
CCCCCCCCCCCCCCC[C@H](O)CCCC[C@H]1CC=CC(=O)O1 | 4.6 µg/mL
Cc1nc2n(CCO)nc(-c3ccccc3)c(=O)n2n1 | 1000 µM
O=C(NCc1ccc(Cl)cc1)c1c[nH]c2ccc(CCCO)cc2c1=O | 42.7 µM
CCCOC(=O)CSc1nnc(-c2ncc([N+](=O)[O-])n2C)s1 | >10 µg/mL
Cn1c(NNc2nc(Nc3ccc(F)c(Cl)c3)nc(Nc3ccc(F)c(Cl)c3)n2)nc(-c2ccc(Cl)cc2)c(C#N)c1=O | 41 µg/mL
COC(=O)CSc1nnc(-c2ccc([N+](=O)[O-])o2)s1 | 2.3 µg/mL
O=c1[nH]c(=O)n([C@@H]2O[C@H](CO)[C@@H](O)[C@@H]2O)cc1/C=C/Br | 730 µM
CCOC(=O)c1cc(CNc2cccc(OC(F)(F)F)c2)on1 | >128 µM
NCCCNc1cc(C(F)(F)F)nc2c(C(F)(F)F)cccc12 | >128 µM
Cn1c(NNc2nc(Nc3cccc(Cl)c3)nc(Nc3cccc(Cl)c3)n2)nc(-c2ccccc2)c(C#N)c1=O | 27 µg/mL
CCOC(=O)CSc1nnc(-c2ccc([N+](=O)[O-])o2)s1 | 4.8 µg/mL
CSc1nc2n(COCCO)nc(-c3ccccc3)c(=O)n2n1 | >500 µM
N#Cc1cn([C@H]2C[C@H](O)[C@@H](CO)S2)c(=O)[nH]c1=O | >500 µM
O/N=C\c1cc(C(F)(F)F)nc2c(C(F)(F)F)cccc12 | >128 µM
O=C1c2cccnc2-c2nccc3c2c1nc1ccccc13 | <0.04 µg/mL
CN(C)c1cc(C(F)(F)F)nc2c(C(F)(F)F)cccc12 | >128 µM
CCN(CC)CCCOc1c2occc2cc2ccc(=O)oc12 | 27.5 µg/mL
O=c1c(-c2ccccc2)cn(CCCCO)c2ncnn12 | >800 µM
Cc1cn([C@H]2C[C@H](O)[C@]3(CO)C[C@H]23)c(=O)[nH]c1=O | >100 µM
Cc1c(CN2CCSCC2)cc(-c2ccc(F)cc2)n1-c1ccccc1 | 4 µg/mL
CC(=O)CCCCCCCCCCCc1ccc2c(c1)OCO2 | >102 µg/mL
O=[N+]([O-])c1nccn1CCCCNc1ccnc2cc(Cl)ccc12 | >640 µg/mL
CCOP(=O)(OCC)C1=NOC(n2ccc(NC(C)=O)nc2=O)C1 | >400 µM
O=c1[nH]c(=O)n([C@H]2C[C@H](O)[C@@H](CO)S2)cc1C=C(F)F | >500 µM
Oc1ccccc1Cc1nc2ccccc2o1 | 62 µg/mL
C=C(C)c1cn([C@H]2C[C@H](O)[C@@H](CO)S2)c(=O)[nH]c1=O | >100 µM
Cc1nc2n(COCCO)nc(-c3ccccc3)c(=O)n2n1 | >500 µM
CCCCCCCCCCCCCC[C@H](O)C[C@H](O)C[C@H](O)C[C@H]1CC=CC(=O)O1 | 5.61 µg/mL
CCOC(=O)c1cc(-c2cc(C(F)(F)F)cc(C(F)(F)F)c2)on1 | >128 µM
COc1cccc(Nc2nc(NNc3nc(-c4ccccc4)c(C#N)c(=O)n3C)nc(Nc3cccc(OC)c3)n2)c1 | 32 µg/mL
CCOP(=O)(OCC)C1=NOC(n2cc(F)c(=O)[nH]c2=O)C1 | >400 µM
O=c1[nH]c(=O)n([C@H]2C[C@H](O)[C@@H](CO)S2)cc1Cl | 59 µM
O=C(c1ccccc1)c1nc2cc(Cl)ccc2o1 | 4 µg/mL
O=C1CC(c2ccccc2)n2nc(-c3ccncc3)nc2N1 | >50 µg/mL
CN(C)CCc1c2c(nc3ccccc13)C(=O)c1ccccc1C2=O | 3.5 µg/mL
CC1(C)C=Cc2cc(C(=O)c3ccccc3)ccc2O1 | 32 µg/mL
COc1ccc2[nH]c3cc(O)c(C=O)cc3c2c1 | >102 µg/mL
COc1ccc2nc3n[nH]c(C)c3c(SCc3ccco3)c2c1 | >100 µg/mL
O=c1c(-c2ccccc2)nn(C/C=C\CO)c2ncnn12 | >500 µM
CCOC(=O)c1cc(-c2ccc(CO)cc2)on1 | >128 µM
COc1ccc(C2CC(=O)Nc3nc(-c4ccncc4)nn32)cc1 | >50 µg/mL
Nc1nc2c(sc(=O)n2C/C=C\CO)c(=O)[nH]1 | >400 µM
O=C1CC(c2ccc([N+](=O)[O-])cc2)n2nc(-c3ccncc3)nc2N1 | >50 µg/mL
COc1cc(/C=C/C(=O)NCCc2ccc(O)cc2)ccc1O | >102 µg/mL
CC1(C)CCc2cc(Cc3ccccc3)ccc2O1 | 16 µg/mL
CN(C)/C=C/c1c2c(nc3ccccc13)C(=O)c1cccnc1C2=O | <0.26 µg/mL
O=C(NCc1ccc(Cl)cc1)c1c[nH]c2c(F)cccc2c1=O | >50 µM
Cc1ccc2[nH]c3ccccc3c2c1 | >102 µg/mL
CC1(C)C=Cc2c(ccc3oc4ccccc4c23)O1 | 80 µg/mL
COc1cc(CCc2ccc3c(c2)OCO3)oc(=O)c1 | 41.96 µg/mL
O=C1CC(c2ccc([N+](=O)[O-])cc2)n2nc(-c3ccc4ccccc4c3)nc2N1 | >50 µg/mL
CC(C)=CCc1c(O)ccc2[nH]c3ccc(C=O)cc3c12 | >102 µg/mL
O=c1c(-c2ccccc2)nn(CCO)c2ncnn12 | >500 µM
CC1(C)C(OC2O[C@H](C(=O)O)[C@@H](O)[C@H](NC3[C@@H](O)[C@H](O)[C@@H](CO)O[C@@H]3O)[C@H]2OC2O[C@H](O)[C@@H](O)[C@H](O)[C@H]2C(=O)O)CC[C@@]2(C)C1CC[C@]1(C)C2C(=O)C=C2C3C[C@@](C)(C(=O)O)CC[C@]3(C)CC[C@]21C | 250 µg/mL
CCCCCc1nc2n(n1)C(c1ccc(OC)cc1)CC(=O)N2 | >50 µg/mL
Oc1ccccc1Cc1nc2cc(Cl)ccc2s1 | 62 µg/mL
CN(C)c1cccc(-c2cc(C(F)(F)F)nc3c(C(F)(F)F)cccc23)c1 | 39 µM
CCCCCCCCCCCCCCC[C@H](O)C[C@H]1CC=CC(=O)O1 | 3.07 µg/mL
O=c1[nH]c(=O)n([C@H]2C[C@H](O)[C@@H](CO)S2)cc1C1CC1 | >500 µM
CC(=O)c1ccc2oc3ccc(C(C)=O)cc3c2c1 | 16 µg/mL
CSc1nc2n(C/C=C\CO)nc(-c3ccccc3)c(=O)n2n1 | 530 µM
CCC(C)c1cn([C@H]2C[C@H](O)[C@@H](CO)S2)c(=O)[nH]c1=O | >500 µM
CC(=O)c1ccc2oc3ccc(O)cc3c2c1 | 16 µg/mL

The first 5 rows once more:

Nc1nc(=O)n([C@@H]2CC[C@H](CO)O2)cc1F ; result: 33 µM
Cc1c(CN2CCSCC2)cc(-c2ccc(F)cc2)n1-c1ccc(Cl)cc1 ; result: 8 µg/mL
CCCCCCCCCCCCCCC[C@H](O)CCC[C@H](O)C[C@H]1CC=CC(=O)O1 ; result: 2.2 µg/mL
CC#Cc1cn([C@@H]2O[C@H](CO)[C@@H](O)[C@@H]2O)c(=O)[nH]c1=O ; result: >500 µM
CCCCCCCCCCCCCCC[C@H](O)CCCC[C@H]1CC=CC(=O)O1 ; result: 4.6 µg/mL